Measured values from several laboratories, pooled; numbers as filed in NIAID ChemDB.

All rows: whole-cell or culture tests; species: Aspergillus flavus

Zones are inhibition diameters on agar. Lines come from different laboratories, so protocols vary. An empty or dashed field is not shown. A number after MIC or MFC names an inhibition level or a share of isolates. Inhibition is in % at the dose shown (toxicity tests: loss of growth or viability).

smiles,tested at,endpoint,method,strain,result
Nc1nc(/N=C/c2ccc[n-]2)n[nH]1.Nc1nc(/N=C/c2ccc[n-]2)n[nH]1.[O]=[V+2],200 µg/mL,inhibition,agar diffusion / agar,-,65%
COc1cccc(C2=NN(c3ccccc3)C(c3ccc(SC)cc3)C2)c1,2000 µg/mL,inhibition,broth dilution,NCIM 594,51.53%
Cc1nc(OCc2nc(-c3cccs3)n[nH]2)c2ccccc2n1,-,MIC100,-,MTCC 277,25 µg/mL
CSc1ccc(C2CC(c3ccc(F)cc3)=NN2c2ccccc2)cc1,2000 µg/mL,inhibition,broth dilution,NCIM 594,94.82%
Cn1c(=O)c(-c2[nH][nH]c(=O)c2N=Nc2cccc(Br)c2)c(O)c2ccccc21,1 mg/mL,zone,agar diffusion,ATCC 28542,14 mm
COc1cc(-c2n[nH]c(COc3nc(C(F)(F)F)nc4ccccc34)n2)cc(OC)c1OC,-,MIC100,-,MTCC 277,12.5 µg/mL
Cc1ccc(N=Nc2c(-c3c(O)c4ccccc4n(C)c3=O)[nH][nH]c2=O)cc1,1 mg/mL,zone,agar diffusion,ATCC 28542,8 mm
COc1ccccc1/C=N/c1n[nH]c(N)n1,200 µg/mL,inhibition,agar diffusion / agar,-,56%
CSc1ccc(C2CC(c3cccc(Br)c3)=NN2c2ccccc2)cc1,2000 µg/mL,inhibition,broth dilution,NCIM 594,91.36%
COc1ccc(-c2n[nH]c(COc3ncnc4ccccc34)n2)cc1,-,MIC100,-,MTCC 277,25 µg/mL
Nc1nc(/N=C/c2c(O)ccc3ccccc23)n[nH]1,200 µg/mL,inhibition,agar diffusion / agar,-,61%
COc1ccc(C2=NN(c3ccccc3)C(c3ccc(SC)cc3)C2)cc1,2000 µg/mL,inhibition,broth dilution,NCIM 594,48.37%
O=C(CNC(=O)c1ccncc1)NN1CSCC1=O,100 µg/mL,zone,agar diffusion,-,15.8 mm
Cn1c(=O)c(-c2[nH][nH]c(=O)c2N=Nc2ccccc2)c(O)c2ccccc21,1 mg/mL,zone,agar diffusion,ATCC 28542,11 mm
CSc1ccc(C2CC(c3cccc(N)c3)=NN2c2ccccc2)cc1,2000 µg/mL,inhibition,broth dilution,NCIM 594,24.97%
CN(C)c1ccc(/C=C2\SC(c3ccc(N(C)C)cc3)N(NC(=O)CNC(=O)c3ccncc3)C2=O)cc1,100 µg/mL,zone,agar diffusion,-,11.4 mm
Cn1c(=O)c(-c2[nH][nH]c(=O)c2/C=N/c2ccccn2)c(O)c2ccccc21,-,MIC,-,ATCC 28542,50 µg/mL
CSc1ccc(C2CC(c3cccc4c3OCO4)=NN2c2ccccc2)cc1,2000 µg/mL,inhibition,broth dilution,NCIM 594,31.19%
Cn1c(=O)c(-c2[nH][nH]c(=O)c2N=Nc2ccc(Br)cc2)c(O)c2ccccc21,-,MIC,-,ATCC 28542,>100 µg/mL
COc1ccccc1/C=N/c1n[nH]c(N)n1.COc1ccccc1/C=N/c1n[nH]c(N)n1.[O]=[V+2],200 µg/mL,inhibition,agar diffusion / agar,-,62%
Cc1ccc(/C=c2\c(=O)[nH][nH]\c2=C2/C(=O)c3ccccc3N(C)C2=O)cc1,1 mg/mL,zone,agar diffusion,ATCC 28542,5 mm
COc1ccc(-c2n[nH]c(COc3nc(C)nc4ccccc34)n2)cc1OC,-,MIC100,-,MTCC 277,50 µg/mL

For reference, 2 entries again:

| smiles | tested at | endpoint | method | strain | result |
|---|---|---|---|---|---|
| Cn1c(=O)c(-c2[nH][nH]c(=O)c2N=Nc2ccccc2)c(O)c2ccccc21 | 1 mg/mL | zone | agar diffusion | ATCC 28542 | 11 mm |
| COc1ccc(-c2n[nH]c(COc3nc(C)nc4ccccc34)n2)cc1OC | - | MIC100 | - | MTCC 277 | 50 µg/mL |